# Record: PubChem BioAssay AID1259414 (Drosophila RNAi Screening Center, 2018)
# Aim: 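Genome-wide screen for host control of endosymbiont load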 (primary screen)
# System: Drosophila JW18 cells infected with Wolbachia
# Reagent: long dsRNA against Drosophila genes, 0.25 µg dsRNA per well of a 384-well plate
# Timing: 5 days
# Conditions: cells persistently infected with Wolbachia before knock-down; no added drug
# Detection: 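Imaged fluorescence in situ signal for Wolbachia 23S rRNA per DAPI-counted host cell, given as a robust z-score within each plate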
# Reading the numbers: Wolbachia per cell robust z: higher = more Wolbachia per host cell than the plate typical
# Call rule: 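Active if absolute robust z reaches 1.5 in two or more of three replicates, leaving out multi- or no-target dsRNAs, genes unexpressed in JW18 and A1 wells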
# The deposit covers about 24,000 reagents; this is a random part of those with a known target gene and a result. Over the whole deposit, about 1,210 (5%) got an active call. 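Inactive calls also include excluded dsRNAs with several or no targets, genes unexpressed in JW18, and well A1, regardless of score.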 A plus sign joins genes that one reagent is predicted to hit. No sequences are given here.
gene knocked down,dsRNA,"Wolbachia per cell robust z, rep 1","Wolbachia per cell robust z, rep 2","Wolbachia per cell robust z, rep 3",call
CG14232 + CG14230,DRSC29188,-0.719,-0.103,0.0678,inactive
alien,DRSC03482,-1.52,2.23,2.08,active
CG34222,DRSC38676,0.578,-2.3,1.32,inactive
CG17732,DRSC10283,0.307,-1.81,0.98,inactive
stai,DRSC02920,0.491,-0.913,-0.247,inactive
stai,DRSC22235,0.621,-0.0949,-1.28,inactive
stai,DRSC28369,-1.28,-1.65,-3.7,active
Fa2h,DRSC06608,0.3,0.361,0.0391,inactive
Fa2h,DRSC06609,-1.18,-0.355,-0.518,inactive
CG11030,DRSC02120,1.38,0.921,-0.0889,inactive
CG11030,DRSC23703,0.367,1.23,0.998,inactive
Pp4-19C,DRSC20559,0.377,0.0421,-0.149,inactive
Pp4-19C,DRSC21251,1.33,0.649,1.23,inactive
Pp4-19C,DRSC23319,0.221,0.526,-1.03,inactive
Pp4-19C,DRSC26053,1,2.45,1.44,inactive
Cpr78Cb,DRSC11847,0.698,-3.07,1.59,inactive
Cpr78Cb,DRSC26957,0.909,-0.355,1.39,inactive
CG9084,DRSC07335,0.0441,-3.99,-2.62,inactive
CG5191,DRSC15733,0.0615,-0.0127,1.19,inactive
CG5191,DRSC15734,0.589,-1.53,0.665,inactive
CG5191,DRSC21559,-0.234,-1.05,-0.389,inactive
CG5191,DRSC27689,-0.226,-0.308,0.0721,inactive
Eig71Ee,DRSC11152,1.14,0.412,0.0675,inactive
CG16758,DRSC07984,0.43,1.33,-0.044,inactive
CG16758,DRSC08492,-0.732,-0.614,0.0292,inactive
CG16758,DRSC28475,-0.148,0.601,0.724,inactive
CG13332,DRSC06367,-1.09,-0.301,-1.83,inactive
mtTFB1 + Ccdc56,DRSC10809,-0.527,-0.458,0.212,inactive
mtTFB1 + Ccdc56,DRSC28766,0.409,1.35,-0.988,inactive
Khc-73,DRSC07449,-0.483,-1.69,-1.2,inactive
Khc-73,DRSC26819,-0.111,0.482,-0.156,inactive
Uch,DRSC00797,0.48,0.439,-0.00401,inactive
CG32811,DRSC22649,0.681,-0.359,-0.86,inactive
Reps,DRSC02940,-1.05,-8.24,-0.353,inactive
Mid1,DRSC04231,0.371,-1.16,-0.206,inactive
Mid1,DRSC04308,0.0839,-1.47,-0.54,inactive
Mid1,DRSC22773,0.755,-0.79,-0.613,inactive
Mid1,DRSC22803,-0.361,-0.056,-0.253,inactive
Mid1,DRSC25509,-0.84,0.661,-0.334,inactive
Mid1,DRSC28634,1.25,1.4,0.0859,inactive
Usf,DRSC18129,-1.88,-1.04,-0.454,inactive
Usf,DRSC23749,-0.567,-0.844,-1.08,inactive
CG8840,DRSC00713,-1.31,-0.893,1.77,inactive
CG32055,DRSC10666,-0.471,1.01,-0.942,inactive
Hers,DRSC19429,-0.823,-0.296,0.243,inactive
Hers,DRSC19676,-1.5,-1.65,-0.986,active
Hers,DRSC24330,-1.35,-2.82,-1.05,inactive
Syn,DRSC16876,-1.22,-2.59,-4.05,inactive
Syn,DRSC26448,1.02,0.66,0.216,inactive
CG32564,DRSC19933,-0.175,0.0392,0.187,inactive
CG32564,DRSC25202,-0.41,-0.958,-0.315,inactive
Tim8,DRSC20291,-0.04,-2.4,0.23,inactive
Vps13D,DRSC09818,-0.14,-0.838,-0.983,inactive
Vps13D,DRSC09819,0.322,0.109,0.657,inactive
Axn,DRSC14120,1.83,0.357,0.0883,inactive
Axn,DRSC29423,1.88,-0.489,-2.05,inactive
Cln7,DRSC11005,0.113,0.00362,-0.359,inactive
coro,DRSC05007,-0.3,0.0559,-0.915,inactive
coro,DRSC21417,0.436,-1.45,-0.301,inactive
CG14356,DRSC14819,-1.93,-0.686,-0.656,inactive
CG3942,DRSC15525,-0.125,0.912,-4.01,inactive
CG3942,DRSC26921,-0.361,-1.93,-0.525,inactive
His3.3A,DRSC03343,1.66,4.9,3.19,active
His3.3A,DRSC25053,0.203,0.343,-1.04,inactive
Nadsyn,DRSC20222,-0.548,0.155,-0.711,inactive
BomBc1,DRSC06501,0.491,0.0225,0.115,inactive
BomBc1,DRSC23723,-1.48,-0.842,-1.31,inactive
AIMP2,DRSC09877,0.299,-6.92,-0.124,inactive
AIMP2,DRSC26797,0.37,0.323,0.0322,inactive
